Results of unrelated studies side by side (data: NIAID ChemDB).

Shared fields: growth or infection tests; organism: Candida albicans; measure: zone

Blank or dashed fields: not listed here.

compound,strain or isolate,read by,dose,value
Clc1ccccc1C(c1ccccc1)(c1ccccc1)n1ccnc1,IFO 0583,agar diffusion,100 µg/disc,21 mm
N=C1C(=S)N(c2ccc(F)cc2)C(=O)N1c1cc(Cl)c(Cl)cc1Cl,IMRU-3669,agar diffusion / agar,5 mg/mL,23 mm
Nc1nc(COC(=O)c2ccccc2[N+](=O)[O-])cs1,-,-,25 µg/mL,<10 mm
Cc1c(Cc2ccc(Cl)cc2)[nH]c(=S)[nH]c1=O,ATCC 10231,agar diffusion / agar,200 µg/disc,15 mm
O=C1C(Cl)C(c2ccccc2)N1Nc1nc2ccccc2n2nnnc12,ATCC 2091,agar diffusion,100 µg/mL,9 mm
NS(=O)(=O)c1ccc(-n2nc(-c3ccc(Cl)cc3)c3c(C(F)(F)F)cc(-c4ccc(Br)cc4)nc32)cc1,MTCC 227,agar diffusion / agar,4000 µg/mL,0 mm
Cn1c(SCCN2CCCC2)nnc1C12CC3CC(CC(C3)C1)C2,IFO 0583,agar diffusion,200 µg/disc,<10 mm
O=C1CSC(c2ccc([N+](=O)[O-])cc2)N1Nc1nc2ccccc2n2nnnc12,ATCC 2091,agar diffusion,50 µg/mL,10 mm
Nc1nc(COC(=O)Cc2cccc(C(F)(F)F)c2)cs1,-,-,25 µg/mL,<10 mm
CCc1c(Cc2ccc(OC)c(OC)c2)nc(SCCN2CCCCC2)[nH]c1=O,ATCC 10231,agar diffusion / agar,200 µg/disc,20 mm
CN1CCN(c2nc(Nc3ccc(C#N)c(C(F)(F)F)c3)nc(Oc3cccc4cccnc34)n2)CC1,MTCC 183,agar diffusion / agar,100 µg/disc,21 mm
Cc1ccc(N2C(=O)N(c3ccc(F)cc3)C(=N)C2=S)cc1,IMRU-3669,agar diffusion / agar,5 mg/mL,13.5 mm
C[C@@H]1[C@H](O)[C@@H](C)/C=C/C=C/C=C/C=C/C=C/C=C/C=C/[C@H](O[C@@H]2O[C@H](C)[C@@H](O)[C@H](N)[C@@H]2O)C[C@@H]2O[C@](O)(C[C@@H](O)C[C@@H](O)[C@H](O)CC[C@@H](O)C[C@@H](O)CC(=O)O[C@H]1C)C[C@H](O)[C@H]2C(=O)O,-,agar diffusion,10 µg,18.71 mm
N=C1C(=S)N(c2ccc(I)cc2)C(=O)N1c1ccc(Cl)c(C(F)(F)F)c1,IMRU-3669,agar diffusion / agar,5 mg/mL,14.5 mm
CC(=O)c1ccc(-c2nn(-c3ccc(C)cc3)cc2-c2ccc([N+](=O)[O-])cc2)nc1C,-,agar diffusion / agar,2.5 mg/mL,4 mm
COc1ccc(C2SCC(=O)N2Nc2nc3ccccc3n3nnnc23)cc1,ATCC 2091,agar diffusion,50 µg/mL,7 mm
Cc1cc(C(F)(F)F)c2c(-c3ccc(Cl)cc3)nn(-c3ccc(S(N)(=O)=O)cc3)c2n1,MTCC 227,agar diffusion / agar,4000 µg/mL,0 mm
N#Cc1ccc(Nc2nc(Oc3cccc4cccnc34)nc(N3CCN(c4cccc(Cl)c4Cl)CC3)n2)cc1C(F)(F)F,MTCC 183,agar diffusion / agar,100 µg/disc,25 mm
NS(=O)(=O)c1ccc(-n2nc(-c3ccc(Cl)cc3)c3c(C(F)(F)F)cc(-c4ccccc4)nc32)cc1,MTCC 227,agar diffusion / agar,4000 µg/mL,0 mm
CN(C)/C=C/C(=O)c1nn(-c2ccccc2)cc1-c1ccc([N+](=O)[O-])cc1,-,agar diffusion / agar,2.5 mg/mL,6 mm
Clc1ccc(CSc2nnc(C34CC5CC(CC(C5)C3)C4)n2-c2ccccc2)cc1,IFO 0583,agar diffusion,200 µg/disc,<10 mm
N=C1C(=S)N(c2ccc(F)cc2)C(=O)N1c1ccc(Oc2ccc(N3C(=N)C(=S)N(c4ccc(F)cc4)C3=O)cc2)cc1,IMRU-3669,agar diffusion / agar,5 mg/mL,17 mm
N#Cc1ccc(C(=O)OCc2csc(N)n2)cn1,-,-,25 µg/mL,<10 mm
CC(=O)N1CCN(c2ccc(OC[C@H]3CO[C@](Cn4ccnc4)(c4ccc(Cl)cc4Cl)O3)cc2)CC1,ATCC 10231,agar diffusion,100 µg/mL,10 mm
Cc1ccc(-n2cc(-c3ccc([N+](=O)[O-])cc3)c(C(=O)/C=C/N(C)C)n2)cc1,-,agar diffusion / agar,2.5 mg/mL,4 mm
CCc1c(Cc2ccc(Cl)cc2)[nH]c(=S)[nH]c1=O,ATCC 10231,agar diffusion / agar,200 µg/disc,22 mm
COc1cc(N2C(=N)C(=S)N(c3ccc(F)cc3)C2=O)ccc1-c1ccc(N2C(=N)C(=S)N(c3ccc(F)cc3)C2=O)cc1OC,IMRU-3669,agar diffusion / agar,5 mg/mL,21 mm
CCc1c(Cc2ccc(C)cc2)nc(SCCN2CCOCC2)[nH]c1=O,ATCC 10231,agar diffusion / agar,200 µg/disc,<10 mm
O=C1C(Cl)C(c2ccccc2[N+](=O)[O-])N1Nc1nc2ccccc2n2nnnc12,ATCC 2091,agar diffusion,100 µg/mL,11 mm
O=c1oc2ccccc2cc1-c1nnc(/N=C/c2ccccc2)o1,ATCC 10231,agar diffusion,100 µg/mL,12 mm
CCN1CCN(c2nc(Nc3ccc(C#N)c(C(F)(F)F)c3)nc(Oc3cccc4cccnc34)n2)CC1,MTCC 183,agar diffusion / agar,100 µg/disc,21 mm
O=c1oc2ccccc2cc1-c1nnc(/N=C/c2ccc(O)cc2)o1,ATCC 10231,agar diffusion,100 µg/mL,9 mm
C/C=C/C1=CC2=CC(=O)[C@](C)(OC(=O)c3c(C)cc(O)cc3OC)C(=O)C2=CO1,ATCC 64548,agar diffusion,1 µg/disc,0 mm
CCc1c(Cc2ccc(Cl)cc2)nc(SCCCN2C(=O)c3ccccc3C2=O)[nH]c1=O,ATCC 10231,agar diffusion / agar,200 µg/disc,12 mm
N#Cc1ccc(Nc2nc(Oc3cccc4cccnc34)nc(N3CCN(c4ccccn4)CC3)n2)cc1C(F)(F)F,MTCC 183,agar diffusion / agar,100 µg/disc,28 mm
CCOC(=O)c1ccc(-c2nn(-c3ccccc3)cc2-c2ccc([N+](=O)[O-])cc2)nc1C,-,agar diffusion / agar,5 mg/mL,12 mm
CCc1c(Cc2ccc(Cl)cc2)nc(SCCN2CCOCC2)[nH]c1=O,ATCC 10231,agar diffusion / agar,200 µg/disc,15 mm
Cc1ccc(O)c(O)c1O,-,-,200 µg/mL,16 mm
Cc1c(Cc2ccc(Cl)cc2)nc(SCCCN2C(=O)c3ccccc3C2=O)[nH]c1=O,ATCC 10231,agar diffusion / agar,200 µg/disc,13 mm
Cn1c(SCCN2CCCCC2)nnc1C12CC3CC(CC(C3)C1)C2,IFO 0583,agar diffusion,200 µg/disc,<10 mm
NS(=O)(=O)c1ccc(-n2nc(-c3ccccc3)c3c(C(F)(F)F)cc(-c4ccc(Cl)cc4)nc32)cc1,MTCC 227,agar diffusion / agar,4000 µg/mL,0 mm
N#Cc1cccc(C(=O)OCc2csc(N)n2)n1,-,-,25 µg/mL,<10 mm
CCN(CC)CCn1nc(C23CC4CC(CC(C4)C2)C3)n(C)c1=S,IFO 0583,agar diffusion,200 µg/disc,<10 mm

A second listing of 5 rows from above:

compound,strain or isolate,read by,dose,value
CC(=O)c1ccc(-c2nn(-c3ccc(C)cc3)cc2-c2ccc([N+](=O)[O-])cc2)nc1C,-,agar diffusion / agar,2.5 mg/mL,4 mm
CCN1CCN(c2nc(Nc3ccc(C#N)c(C(F)(F)F)c3)nc(Oc3cccc4cccnc34)n2)CC1,MTCC 183,agar diffusion / agar,100 µg/disc,21 mm
Nc1nc(COC(=O)c2ccccc2[N+](=O)[O-])cs1,-,-,25 µg/mL,<10 mm
NS(=O)(=O)c1ccc(-n2nc(-c3ccc(Cl)cc3)c3c(C(F)(F)F)cc(-c4ccccc4)nc32)cc1,MTCC 227,agar diffusion / agar,4000 µg/mL,0 mm
O=C1CSC(c2ccc([N+](=O)[O-])cc2)N1Nc1nc2ccccc2n2nnnc12,ATCC 2091,agar diffusion,50 µg/mL,10 mm

Zone: diameter of growth inhibition. Neighbouring rows are from separate reports.